The source of these data is paper PMC9610207 (Viruses, 2022).

The chains behind the UniProt entries cited, without tags or fusion partners. Where a name states a change or a piece, a line headed by the entry shows the natural chain unless it says otherwise.
UniProt O00560: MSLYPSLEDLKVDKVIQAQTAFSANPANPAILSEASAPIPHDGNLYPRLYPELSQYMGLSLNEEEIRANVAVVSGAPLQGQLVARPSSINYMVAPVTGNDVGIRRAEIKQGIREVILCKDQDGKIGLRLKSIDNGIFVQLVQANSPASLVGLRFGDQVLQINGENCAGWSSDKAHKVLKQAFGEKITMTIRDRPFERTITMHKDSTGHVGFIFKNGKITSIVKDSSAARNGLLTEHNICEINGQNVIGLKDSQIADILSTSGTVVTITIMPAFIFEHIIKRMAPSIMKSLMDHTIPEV

This experiment deals with human Syntenin PDZ1-2 (amino acids 111-213) (human, UniProt O00560 111-213). The experiment can be described thus: fluorescence polarisation. The following applies: both partners purified. In general terms: Fluorescence polarisation rises when a labelled molecule tumbles more slowly, as on binding a larger partner.

One may read the Kd as the concentration at which binding is half-saturated. The low end stands for a tighter complex, the high end for a looser complex. SADAQSFLNGFAV (FITC-labeled) [FITC-labeled peptide NSP11 4393-4405 of SARS-CoV-2]: the Kd came out at 133 ± 25 µM.
